Compound potency records, mixed from different reports. Data source: NIAID ChemDB in PubChem.

All rows: enzyme or target tests; species: Hepatitis C virus; target: Nonstructural protein 5B; read-out: IC50

Two numbers with a dash give a range or band. Blank or dashed fields: not listed here. Rows are shuffled and stem from different studies. ICn: concentration for n% inhibition.

compound,strain,read by,result
O=C(Nc1ccc2[nH]ncc2c1)c1cc(NCCO)c(F)cc1F,,,>10 µg/mL
COc1ccc2c(c1)C[C@@H]1C[C@]1(C(=O)N1C[C@H]3CC[C@@H](C1)CN(S(=O)(=O)C(C)C)C3)Cn1c-2c(C2CCCCC2)c2ccc(C(=O)NS(=O)(=O)N(C)C)cc21,1b,nucleotide incorporation,0.003 µM
Cc1cc(CCC2(C3CCCC3)CC(O)=CC(=O)O2)ccc1C1(C)OCCO1,,,1–10 µM
COc1c(-c2ccc3cc(NS(C)(=O)=O)ccc3c2)cc(-n2ccc(=O)[nH]c2=O)cc1C(C)(C)C,GT 1a#2,nucleotide incorporation,0.0042 µM
O=C(O)CCN1C(=O)C(=Cc2ccc(-c3cc4ccccc4c4ccccc34)o2)SC1=S,,,≤1 µM
COc1nc(Nc2ccc3cn[nH]c3c2)nc(N2CCCC2)n1,,,1–10 µg/mL
CNC(=O)c1c(-c2ccc(F)cc2)oc2cc(N(C)S(C)(=O)=O)c(OCc3nc(N)n[nH]3)cc12,,,≤0.5 µM
CC(C)(C)c1cc2nc(N)sc2cc1SC1=C(O)CC(C2CCCC2)(C2CCCC2)OC1=O,,,10–50 µM
COc1ccc2c(c1)C[C@@H]1C[C@]1(C(=O)N1C[C@H]3CC[C@@H](C1)CN(S(=O)(=O)C(C)C)C3)Cn1c-2c(C2CCCCC2)c2ccc(C(=O)NS(=O)(=O)C(C)C)cc21,1b,nucleotide incorporation,0.004 µM
OCc1nnc(-c2ccc(N3CCC(Oc4cc(F)ccc4Br)CC3)nn2)o1,1b,nucleotide incorporation / radiometric,>80 µM
CNC1N=C(OC)N=C(Nc2ccc3cn[nH]c3c2)N1CN,,,>10 µg/mL
CCCN(C1=C(O)CC(C2CCCC2)(C2CCCC2)OC1=O)c1cccc(NS(=O)(=O)c2cccs2)c1,,,10–50 µM
O=C(O)c1ccc(N2C(=O)C(=Cc3ccc(-c4cccc(C(F)(F)F)c4)o3)SC2=S)cc1,,,≤1 µM
COc1c(F)cc(CCC2(C3CCCC3)CC(=O)CC(=O)O2)cc1F,,,1–10 µM
O=C(O)C(=O)/C=C(\O)c1cccc(NS(=O)(=O)c2cc(Cl)c(Cl)cc2Cl)c1,,,0.68 µM
O=C(Nc1ccc2[nH]ncc2c1)c1cc(NCCN2CCOCC2)c(F)cc1F,,,1–10 µg/mL
COc1ccc(CCC2(C3CCCC3)CC(O)=C(Sc3nc4ccccc4o3)C(=O)O2)cc1Cl,,,<1 µM
O=C(Nc1ccc2[nH]ncc2c1)c1cc(NCCc2ccccn2)c(F)cc1F,,,1–10 µg/mL
Nc1nc2cc(CNC(=O)Cn3nc(C(=O)O)cc3OCc3ccccc3-c3ccc(C(F)(F)F)cc3)ccc2s1,,,>12.5 µM
O=C(Nc1ccc2cn[nH]c2c1)c1cc(NCCc2ccccn2)c(F)cc1F,,,1–10 µg/mL
COc1nc(Nc2ccc3cn[nH]c3c2)nc(NC2CC2)n1,,,0.1–1 µg/mL
O=C(O)c1ccc(N2C(=O)C(=Cc3ccc(-c4cc(C(F)(F)F)cc(C(F)(F)F)c4)o3)SC2=S)cc1,,,≤1 µM
CC1(c2ccc(CCC3(C4CCCC4)CC(=O)CC(=O)O3)cc2Cl)OCCO1,,,<1 µM
C[C@@]1(O)[C@H](O)[C@@H](COP(=O)([O-])OP(=O)([O-])OP(=O)([O-])O)O[C@H]1n1cnc2c(N)nc(N)nc21,WT gt 4a,nucleotide incorporation,1.4 µM
CNC(=O)c1c(-c2ccc(F)cc2)oc2cc(OCc3ccccc3)c(OC)cc12,,,≤0.5 µM
O=C(O)CCN1C(=O)C(=Cc2ccc(-c3ccc(Cl)cc3)o2)SC1=S,,,≤1 µM
CNC(=O)C1CCN(c2nc(Nc3ccc4[nH]ncc4c3)nc(OC)n2)CC1,,,>10 µg/mL
CCNc1cc2oc(-c3ccc(F)cc3)c(C(=O)NC)c2c(Cl)c1OS(C)(=O)=O,,,≤0.5 µM
COc1nc(NCCN(C)C)nc(Nc2ccc3[nH]ncc3c2)n1,,,>10 µg/mL
CC(Cc1ccccn1)Nc1cc(C(=O)Nc2ccc3cn[nH]c3c2)c(F)cc1F,,,>10 µg/mL
O=C1CC(=O)OC(CCc2ccc(N3CCCC3=O)cc2)(C2CCCC2)C1,,,1–10 µM
O=C(O)c1ccc(N2C(=O)C(=Cc3ccc(-c4ccc(F)c(F)c4)o3)SC2=S)cc1,,,≤1 µM
COc1nc(NCCN2CCOCC2)nc(Nc2ccc3[nH]ncc3c2)n1,,,>10 µg/mL
CNC(=O)c1c(-c2ccc(F)cc2)oc2cc(-c3ccoc3)c(OC(C)C)cc12,,,≤0.5 µM
OCc1ccn2cc(-c3cn(Cc4cc(Cl)c(Cl)c(Cl)c4)nn3)nc2c1,GT1b,nucleotide incorporation / radiometric,32.4 µM
N[C@H]1CSSC[C@@H](C(=O)O)NC(=O)CNC(=O)[C@H](Cc2c[nH]c3ccccc23)NC(=O)[C@@H]2CCCN2C(=O)[C@H](Cc2ccccc2)NC1=O,,,50 µM
CC(C)(C)COc1cc(C(=O)O)nn1CC(=O)N[C@H]1CCCC[C@@H]1OCC1CCCCC1,,,>12.5 µM
CNC(=O)c1c(-c2ccc(F)cc2)oc2cc(C3CNC(=O)C3C(=O)NC)c(OC)cc12,,,≤0.5 µM
COc1nc(Nc2ccc3[nH]ncc3c2)nc(NC2CC2)n1,,,1–10 µg/mL

The last 3 rows once more:

CC(C)(C)COc1cc(C(=O)O)nn1CC(=O)N[C@H]1CCCC[C@@H]1OCC1CCCCC1 ; result: >12.5 µM
CNC(=O)c1c(-c2ccc(F)cc2)oc2cc(C3CNC(=O)C3C(=O)NC)c(OC)cc12 ; result: ≤0.5 µM
COc1nc(Nc2ccc3[nH]ncc3c2)nc(NC2CC2)n1 ; result: 1–10 µg/mL